Results of unrelated studies side by side (data: NIAID ChemDB).

Shared fields: cytotoxicity tests; cells: PBMC; measure: CC50

Neighbouring rows are from separate reports. CCn is the concentration with n% toxicity to the cells. An empty or dashed field is not shown.

{"smiles": "CC(C)Oc1ccccc1CNC(=O)c1ccc2cnccc2n1", "value": "20.46 µM"}
{"smiles": "C/C(=C\\CP(=O)(OCOC(=O)OC(C)C)OCOC(=O)OC(C)C)Cn1cc(C(N)=O)nn1", "read by": "absorbance", "value": "76.8 µM"}
{"smiles": "Cc1cc(C#N)cc(C)c1Oc1nc(Nc2ccc(C#N)cc2)nc(N)c1Br", "read by": "MTT", "value": "25.12 µM"}
{"smiles": "Cc1cn([C@H]2C[C@H](F)[C@@H](COC(=O)CCCCCCCCC(=O)O)O2)c(=O)[nH]c1=O", "read by": "XTT", "value": ">0.5 µM"}
{"smiles": "CCOCn1c(Cc2ccccc2)c(C(C)C)c(=O)[nH]c1=O", "value": ">100 µM"}
{"smiles": "CC(C)c1ccc(S(=O)(=O)NCCc2ccc3c(n2)NCCC3)cc1F", "value": "50 µM"}
{"smiles": "Cc1cncc2ccc(C(=O)NCc3ccccc3OC(C)C)nc12", "value": "4.3 µg/mL"}
{"smiles": "CC(C)Nc1cccnc1N1CCN(C(=O)c2cc3cc(F)ccc3[nH]2)CC1", "value": ">10 µM"}
{"smiles": "Cc1cn([C@H]2CO[C@@H](COP(=O)(N[C@@H](C)C(=O)OCc3ccccc3)Oc3ccccc3)O2)c(=O)[nH]c1=O", "read by": "MTT", "value": ">100 µM"}
{"smiles": "CCCCc1ccc(-c2cn(C/C(C)=C/CP(=O)(OCOC(=O)OC(C)C)OCOC(=O)OC(C)C)nn2)cc1", "read by": "absorbance", "value": "19.4 µM"}
{"smiles": "CN1c2ccccc2C2C1C=C(C#N)C(=O)N2c1ccc([N+](=O)[O-])cc1", "read by": "trypan blue", "value": ">50 µM"}
{"smiles": "Cc1cn([C@H]2C[C@H](N=[N+]=[N-])[C@@H](COC(=O)CCCCCCCCC(=O)O)O2)c(=O)[nH]c1=O", "read by": "XTT", "value": ">0.5 µM"}
{"smiles": "C/C(=C\\CP(=O)(OCOC(=O)OC(C)C)OCOC(=O)OC(C)C)Cn1cc(C2CC2)nn1", "read by": "absorbance", "value": "25.5 µM"}
{"smiles": "Nc1nc(=O)n([C@H]2O[C@@H](CO)[C@H](O)C2(F)F)cc1F", "value": ">100 µM"}
{"smiles": "Cc1c(-c2cccc(SCCN(C)C)c2)ncnc1-c1cccc(SCCN(C)C)c1", "value": "10 µM"}
{"smiles": "Nc1nc(=O)n(C2O[C@@H](CO)[C@H](O)C2(F)F)cc1Br", "value": ">100 µM"}
{"smiles": "Cc1cn([C@H]2C[C@H](F)[C@@H](CO)O2)c(=O)[nH]c1=O", "read by": "XTT", "value": ">0.5 µM"}
{"smiles": "CN(C)CCNc1cc(NCCN(C)C)nc(-c2cc3ccccc3s2)n1", "value": "10 µM"}
{"smiles": "Cc1cn([C@H]2C=C[C@@H](COC(=O)CCCCCCCCCCC(=O)O)O2)c(=O)[nH]c1=O", "read by": "XTT", "value": ">0.5 µM"}
{"smiles": "Cc1cn([C@@H]2C=C(F)[C@H](CO)C2)c(=O)[nH]c1=O", "value": ">100 µM"}
{"smiles": "O=c1[nH]c(=O)n([C@@H]2O[C@@H](CO)[C@H](O)C2(F)F)cc1Br", "value": ">100 µM"}
{"smiles": "Nc1ccn([C@H]2S[C@@H](CO)C=C2F)c(=O)n1", "value": ">100 µM"}
{"smiles": "Cc1cn([C@H]2CO[C@@H](COP(=O)(N[C@@H](C)C(=O)OCc3ccccc3)Oc3cccc4ccccc34)O2)c(=O)[nH]c1=O", "read by": "MTT", "value": ">100 µM"}
{"smiles": "CN1CCN(c2nc(-c3cccs3)cc(-c3cc4ccccc4s3)n2)CC1", "value": ">100 µM"}
{"smiles": "Nc1nc2c(ncn2[C@@H]2C=C(F)[C@H](CO)C2)c(=O)[nH]1", "value": ">100 µM"}
{"smiles": "COC(=O)[C@H](C)NP(=O)(OC[C@@H]1OC[C@H](n2cc(C)c(=O)[nH]c2=O)O1)Oc1ccc(C#N)cc1", "read by": "MTT", "value": ">100 µM"}
{"smiles": "Nc1nc(=O)n([C@@H]2O[C@@H](CO)[C@H](O)C2(F)F)cc1Cl", "value": ">100 µM"}
{"smiles": "Cc1cccc(Cn2c(=O)ccn(CC#N)c2=O)c1", "value": "302 µM"}
{"smiles": "CC1CC(C)CN(S(=O)(=O)c2ccccc2[N+](=O)[O-])C1", "read by": "trypan blue", "value": ">50 µM"}
{"smiles": "Cc1cn([C@H]2CO[C@@H](CO[P@@]3(=O)OCC[C@@H](c4cccc(Cl)c4)O3)O2)c(=O)[nH]c1=O", "read by": "MTT", "value": ">100 µM"}
{"smiles": "Cc1cn([C@@H]2C[C@H](CO)C(F)(F)C2)c(=O)[nH]c1=O", "value": ">100 µM"}
{"smiles": "Nc1nccc2c1ncn2[C@@H]1O[C@H](CO)[C@@H](O)[C@H]1O", "value": "10 µM"}
{"smiles": "CC(C)C([NH3+])C(=O)OC(C)C1C/C=C/CCC(O)C(C)(C)C2CCC(C)C3(O2)O[B-]24OC3C(=O)OC3COC(CCCC(O)C(C)(C)C5CCC(C)C(O5)(O2)C(O4)C(=O)O1)C3", "value": "4.3 µM"}
{"smiles": "CC(=Nc1ccc(O)cc1)C1Sc2ncccc2C1=O", "read by": "MTS", "value": ">100 µM"}
{"smiles": "Cc1cn([C@H]2C[C@H](N=[N+]=[N-])[C@@H](COC(=O)CCCCCCC(=O)O)O2)c(=O)[nH]c1=O", "read by": "XTT", "value": ">0.5 µM"}
{"smiles": "CCCCc1cn(-c2cccc(S(=O)(=O)Nc3cccc4cnccc34)c2)nn1", "setting": "48 h", "read by": "fluorescence", "value": "86.96 µM"}
{"smiles": "O=C(NCCc1cccc(-n2cccn2)n1)NCc1ccc(Cl)c(Cl)c1", "value": "15.3 µM"}
{"smiles": "CN(C)CCNc1nc(-c2ccco2)cc(-c2cc3ccccc3s2)n1", "value": "10 µM"}
{"smiles": "Cc1cc(C)cc(Cn2c(=O)ccn(Cc3ccccc3)c2=O)c1", "value": "194 µM"}
{"smiles": "COc1ccccc1CNC(=O)C1=Cc2ccncc2CC1", "value": ">177.8 µM"}
{"smiles": "Nc1ccn([C@@H]2S[C@H](CO)C=C2F)c(=O)n1", "value": ">100 µM"}
{"smiles": "O=c1[nH]cnc2c1ncn2[C@@H]1O[C@H](CO)C[C@@H]1F", "value": ">80 µM"}
{"smiles": "Nc1ncnc2c1ncn2[C@@H]1C=C(CO)[C@@H](O)[C@H]1O", "value": "10 µM"}
{"smiles": "CN1CCN(c2nc(-c3ccccc3)cc(-c3cccs3)n2)CC1", "value": "100 µM"}
{"smiles": "Nc1ccn([C@H]2C=C[C@@H](CO)O2)c(=O)n1", "value": "65 µM"}
{"smiles": "COC(=O)C(C)(C)NP(=O)(OC[C@@H]1OC[C@H](n2cc(C)c(=O)[nH]c2=O)O1)Oc1cccc2ccccc12", "read by": "MTT", "value": ">100 µM"}
{"smiles": "O=C(NCCc1ccc2c(n1)NCCC2)Nc1ccc(OCc2ccccc2)cc1", "value": "7.9 µM"}
{"smiles": "CN(C)CCNCc1ccc(-c2cccc(-c3ccc(CNCCN(C)C)cc3)n2)cc1", "value": "10 µM"}
{"smiles": "O=C(O)C(=O)/C=C(\\O)c1cc(Cc2ccccc2)cn(Cc2ccccc2)c1=O", "value": ">200 µM"}
{"smiles": "O=[N+]([O-])c1ncnc2c1ncn2[C@@H]1O[C@H](CO)C[C@@H]1F", "value": ">80 µM"}
{"smiles": "Nc1nc2c(ncn2[C@@H]2C[C@H](CO)C(F)(F)C2)c(=O)[nH]1", "value": ">100 µM"}
{"smiles": "O=C(NCCc1ccc2c(n1)NCCC2)Nc1c(F)cccc1Cl", "value": "50 µM"}
{"smiles": "Nc1nc2c(ncn2[C@H]2O[C@@H](CO)[C@H](O)C2(F)F)c(=O)[nH]1", "value": ">100 µM"}
{"smiles": "C/C(=C\\CP(=O)(OCOC(=O)OC(C)C)OCOC(=O)OC(C)C)Cn1cc(C=O)nn1", "read by": "absorbance", "value": "75.1 µM"}
{"smiles": "Cc1cn([C@H]2O[C@@H](CO)[C@H](O)C2(F)F)c(=O)[nH]c1=O", "value": ">100 µM"}
{"smiles": "N=C1Sc2ccccc2C2=NCCCN12", "read by": "LDH", "value": "200 µM"}
{"smiles": "O=c1ccn([C@@H]2O[C@@H](CO)[C@H](O)C2(F)F)c(=O)[nH]1", "value": ">100 µM"}
{"smiles": "CC(=O)N1CCC(C(=O)N(CCCN2CCC(Cc3ccc(C(N)=O)cc3)CC2)c2ccc(C)c(Cl)c2)CC1", "read by": "trypan blue", "value": ">0.1 µM"}
{"smiles": "OC[C@@H]1C[C@H](F)[C@H](n2cnc3c(NO)ncnc32)O1", "value": ">80 µM"}
{"smiles": "Cc1cnc(SCCN2CCN(C)CC2)nc1-c1cc2ccccc2s1", "value": "10 µM"}
{"smiles": "Nc1ccn([C@@H]2C=C(F)[C@H](CO)C2)c(=O)n1", "value": ">100 µM"}
{"smiles": "CC[C@]1(OCP(=O)(O)O)C[C@@H](n2cnc3c(N)ncnc32)C=C1F", "read by": "MTT", "value": "≥10 µM"}
{"smiles": "CC(C)CCC[C@@H](C)[C@H]1CCC2C3CCC4C[C@@H](O[C@H]5O[C@H](COS(=O)(=O)[O-])[C@@H](OS(=O)(=O)[O-])[C@H](OS(=O)(=O)[O-])[C@@H]5O[C@H]5O[C@H](COS(=O)(=O)[O-])[C@@H](OS(=O)(=O)[O-])[C@H](O[C@H]6O[C@H](COS(=O)(=O)[O-])[C@@H](OS(=O)(=O)[O-])[C@H](O[C@H]7O[C@H](COS(=O)(=O)[O-])[C@@H](OS(=O)(=O)[O-])[C@H](OS(=O)(=O)[O-])[C@@H]7OS(=O)(=O)[O-])C6OS(=O)(=O)[O-])[C@@H]5OS(=O)(=O)[O-])CC[C@]4(C)C3CC[C@@]21C", "value": ">800 µg/mL"}
{"smiles": "CN1CCN(CCSCc2ccc(-c3cccc(-c4ccc(CSCCN5CCN(C)CC5)cc4)n3)cc2)CC1", "value": "10 µM"}
{"smiles": "Cc1ccc(Cn2c(=O)ccn(CC#N)c2=O)cc1", "value": ">490 µM"}
{"smiles": "O=C(NCCc1ccc2c(n1)NCCC2)Nc1ccc(Br)nc1", "value": "0.09 µM"}
{"smiles": "CCCCCCCCCCCCCCCCOCCCOP(=O)(N[C@H](C(=O)OC)C(C)C)OC[C@@H]1OC[C@H](n2cc(C)c(=O)[nH]c2=O)O1", "read by": "MTT", "value": "10.7 µM"}
{"smiles": "COCCCCCCCCCCCC(=O)O", "value": "340 µM"}
{"smiles": "O=C(NCCc1ccccc1)C1=Cc2ccncc2CC1", "value": "278 µM"}
{"smiles": "COc1ccc(CNC(=O)NCCc2ccc3c(n2)NCCC3)c(OC)c1", "value": "50 µM"}
{"smiles": "Nc1ncnc2c1ncn2[C@@H]1O[C@H](COC2(c3ccccc3)c3ccccc3Oc3ccccc32)[C@@H](OC2(c3ccccc3)c3ccccc3Oc3ccccc32)[C@H]1OC1CCCCO1", "value": ">100 µM"}

A second listing of 6 rows from above:

smiles	setting	read by	value
Cc1cn([C@H]2C[C@H](N=[N+]=[N-])[C@@H](COC(=O)CCCCCCCCC(=O)O)O2)c(=O)[nH]c1=O	-	XTT	>0.5 µM
CN1CCN(CCSCc2ccc(-c3cccc(-c4ccc(CSCCN5CCN(C)CC5)cc4)n3)cc2)CC1	-	-	10 µM
C/C(=C\CP(=O)(OCOC(=O)OC(C)C)OCOC(=O)OC(C)C)Cn1cc(C2CC2)nn1	-	absorbance	25.5 µM
Nc1nc2c(ncn2[C@@H]2C=C(F)[C@H](CO)C2)c(=O)[nH]1	-	-	>100 µM
Cc1cncc2ccc(C(=O)NCc3ccccc3OC(C)C)nc12	-	-	4.3 µg/mL
Cc1cc(C)cc(Cn2c(=O)ccn(Cc3ccccc3)c2=O)c1	-	-	194 µM